Experimental data from patent publication US20250115654A1 (FUJIAN SHENGDI PHARMACEUTICAL CO., LTD., priority 2021, published 2025).

Assay: general procedure: Fmoc solid-phase peptide synthesis; Rink-amide MBHA resin (0.48 mMole/g); HCTU / 4-methylmorpholine
Conditions: whole synthesis

Question: Which isolated yield does the source give for “H-YAibEGTFTSDYSIYK(OEG-OEG-yGlu-C20-OH)EKIAAQEFVNWLLAGGPSSGAPPPS-NH2” here?
Answer: 18%

Same assay, conditions: whole synthesis, analytical HPLC combined with UHPLC/mass spectrometry

Question: With “H-YAibEGTFTSDYSIYK(OEG-OEG-yGlu-C20-OH)EKIAAQEFVNWLLAGGPSSGAPPPS-NH2” as the substance, how does the “final HPLC purity” value read?
Answer: 92.81%

Question: Which “final HPLC purity” value does the source give for “H-YAibEGTFTSDYSIYLEK(OEG-OEG-yGlu-C20-OH)IAAQEFINWLIAGGPSSGAPPPS-NH2” here?
Answer: 94.56%

Question: For “H-YAibEGTFTSDYSIYLEK(OEG-OEG-yGlu-C20-OH)IAAQEFINWLLAGGPSSGAPPPS-NH2”, which “final HPLC purity” value is on record?
Answer: 92.18%

Question: Which “final HPLC purity” value does the source give for “H-YAibEGTFTSDYSIYLEK(OEG-OEG-yGlu-C20-OH)IAAQEFVNWLIAGGPSSGAPPPS-NH2” here?
Answer: 93.28%

Question: Which “final HPLC purity” value does the source give for “H-YAibEGTFTSDYSIYLEK(OEG-OEG-yGlu-C20-OH)IAAQEFVNWLLAGGPSSGAPPPS-NH2” here?
Answer: 96.30%
